Results of unrelated studies side by side (data: NIAID ChemDB).

All rows: growth or infection tests; species: Coxsackie virus; cell line: VERO; measure: EC50

ECn: concentration that inhibits the pathogen or its effect by n%. Neighbouring rows are from separate reports. An empty or dashed field is not shown.

| smiles | strain | read by | value |
|---|---|---|---|
| CC1(C)[C@@H](CO)CC[C@@]1(C)Cn1cc(Br)c(=O)[nH]c1=O | TYPE B4 | cytopathic effect | >400 µg/mL |
| CCOc1ccc(-c2onc(N(CC)CC)c2Cc2c(N(CC)CC)noc2-c2ccc(O)cc2O)c(O)c1 | ATCC VR28 (TYPE B1) | cytopathic effect | >17 µM |
| CC=NC(=N)c1nc(-c2ccccc2)n(C/C=C/c2ccccc2)n1 | TYPE B4 | cytopathic effect | >4 µg/mL |
| CCC1COC(c2ccc(OCCCCC(=O)c3ccc(C)s3)cc2)=N1 | TYPE B2 | cytopathic effect | 5.93 µM |
| C=C(N=CC)c1nc(-c2cccc(OC)c2)n(C2O[C@H](CO)[C@@H](O)[C@H](O)[C@H]2O)n1 | TYPE B4 | cytopathic effect | >200 µg/mL |
| Nc1nc2c(ncn2CC[C@H](O)CCO)c(=O)[nH]1 | TYPE B4 | cytopathic effect | >400 µg/mL |
| OC[C@H]1O[C@@H](c2cc(Cl)c(F)cc2F)C[C@@H]1O | TYPE B4 | cytopathic effect | >80 µg/mL |
| CC=NC(=N)c1nc(-c2cccc(OC)c2)n(COCCO)n1 | TYPE B4 | cytopathic effect | >100 µg/mL |
| COC(=O)n1c(C(=O)NC(C)C)nc2ccccc21 | TYPE B2 | cytopathic effect | 95 µM |
| C=C(N=CC)c1nc(-c2ccc(OC)cc2)n(C2O[C@H](CO)[C@@H](O)[C@H](O)[C@H]2O)n1 | TYPE B4 | cytopathic effect | >200 µg/mL |
| Nc1ncnc2c1ncn2[C@@H]1O[C@H](CO)[C@](O)(C(F)(F)F)[C@H]1O | B4 | cytopathic effect | >200 µg/mL |
| CC=NC(=N)c1nc(-c2cccc(C)c2)n(C/C=C/c2ccccc2)n1 | TYPE B4 | cytopathic effect | >10 µg/mL |
| Nc1ncnc2c1ncn2[C@@H]1O[C@H](C=NO)[C@@H](O)[C@H]1O | Strain B4 | cytopathic effect | >0.4 µg/mL |
| C=C(N=CC)c1nc(-c2ccc(OC)cc2)n([C@@H]2O[C@H](CO)[C@@H](O)[C@H]2O)n1 | TYPE B4 | cytopathic effect | >100 µg/mL |
| Nc1ncnc2c1ncn2[C@@H]1C[C@H](CO)[C@@H](O)[C@H]1O | TYPE B4 | cytopathic effect | 2 µg/mL |
| CN(C)c1cc(-c2ccc(O)cc2O)on1 | ATCC VR28 (TYPE B1) | cytopathic effect | 55 µM |
| COc1cc(OC)c(/C=N/N=C(/N)NO)c(OC)c1.Cc1ccc(S(=O)(=O)O)cc1 | ATCC VR28 (TYPE B1) | plaque count | >50 µM |
| CON=C1C[C@H](n2cc(C)c(=O)[nH]c2=O)O[C@@H]1CO |  | cytopathic effect | >200 µg/mL |
| Nc1ncnc2c1ncn2C1CC(CO)[C@@H](O)[C@H]1O | TYPE B4 | cytopathic effect | 2 µg/mL |
| Cc1ccc(C(=O)CCCCCCOc2ccc(C3=NC(C)(C)CO3)cc2)s1 | TYPE B2 | cytopathic effect | >26.95 µM |
| CC1(C)[C@@H](CO)CC[C@@]1(C)Cn1cnc2c(=O)[nH]cnc21 | TYPE B4 | cytopathic effect | >400 µg/mL |
| Nc1ncnc2c1ncn2[C@@H]1O[C@H](C(O)O)[C@@H](O)[C@@H]1O | Strain B4 | cytopathic effect | >200 µg/mL |
| C#CCOc1cc(OC)ccc1-c1cc(N(CC)CC)no1 | ATCC VR28 (TYPE B1) | cytopathic effect | 20 µM |
| Nc1ncnc2c1ncn2C[C@H](O)CO | TYPE B4 | cytopathic effect | >200 µg/mL |
| Nc1ccn(CC[C@H](O)CCO)c(=O)n1 | TYPE B4 | cytopathic effect | >400 µg/mL |
| CC=NC(=N)c1nc(-c2cccc(OC)c2)n(C/C=C/c2ccccc2)n1 | TYPE B4 | cytopathic effect | >40 µg/mL |
| COc1ccc(OC)c(/C=N/N=C(/N)NO)c1.Cc1ccc(S(=O)(=O)O)cc1 | ATCC VR28 (TYPE B1) | plaque count | 50 µM |
| Nc1ncnc2c1ncn2[C@H]1C[C@H](O)[C@@H](C=O)O1 | Strain B4 | cytopathic effect | >200 µg/mL |
| Cc1ccc(C(=O)CCCCCCOc2ccc(C3=NCCO3)cc2Cl)s1 | TYPE B2 | cytopathic effect | 1.52 µM |
| O=c1ccn([C@@H]2O[C@H](CO)[C@](O)(C(F)(F)F)[C@H]2O)c(=O)[nH]1 | B4 | cytopathic effect | >400 µg/mL |
| Cc1ccc(C(=O)CCCCOc2ccc(C3=NCC(C)O3)cc2)s1 | TYPE B5 | cytopathic effect | >28.01 µM |
| CC=NC(=N)c1nc(-c2cccc(OC)c2)n(Cc2ccccc2)n1 | TYPE B4 | cytopathic effect | >10 µg/mL |
| Nc1ncnc2c1ncn2CC[C@H](O)CCO | TYPE B4 | cytopathic effect | >400 µg/mL |
| CC1(C)[C@@H](CO)CC[C@@]1(C)Cn1cnc2c(N)ncnc21 | TYPE B4 | cytopathic effect | >400 µg/mL |
| Nc1ncnc2c1ncn2[C@@H]1O[C@H](C=O)[C@@H](O)[C@H]1O | Strain B4 | cytopathic effect | >200 µg/mL |
| CO[C@H](CO)[C@@H](O)CCn1cnc2c(=O)[nH]c(N)nc21 | TYPE B4 | cytopathic effect | >400 µg/mL |
| Nc1ncnc2c1ncn2[C@@H]1O[C@H](/C=N/O)[C@@H](O)[C@@H]1O | Strain B4 | cytopathic effect | >40 µg/mL |
| COc1ccc(-c2cc(N3CCCC3)no2)c(O)c1 | ATCC VR28 (TYPE B1) | cytopathic effect | >384 µM |

A second listing of 3 rows from above:

smiles | strain | read by | value
CC1(C)[C@@H](CO)CC[C@@]1(C)Cn1cnc2c(N)ncnc21 | TYPE B4 | cytopathic effect | >400 µg/mL
Nc1ncnc2c1ncn2C[C@H](O)CO | TYPE B4 | cytopathic effect | >200 µg/mL
Nc1ncnc2c1ncn2[C@@H]1O[C@H](C=NO)[C@@H](O)[C@H]1O | Strain B4 | cytopathic effect | >0.4 µg/mL